The target of the assay is SARS-CoV receptor binding domain (SARS-CoV, UniProt P59594). Description: ELISA; mAb on sarbecovirus RBDs; EC50 of at least two independent experiments. The following applies: both partners purified.

B1: S2K146 human monoclonal antibody (antibody, V domains shown)
VH: QVQLVESGGVVVQPGGSLRLSCAASGFTFHDHTMHWVRQAPGKGLEWVSLITWNGGTIHYSDSVKGRFTISRDNSKNSLYLQMNSLRTEDTALYYCAKDLGRGGWYLPSDAWGQGTLVTVSS
VL: QSVLTQPPSASGTPGQRVTISCSGSSANIGSNTVNWYQHLPGTAPKLLIYSNNQRPSGVPDRFSGSKSGTSASLAISGLQSEDEADYYCAAWDDSLKGVFGGGTKLTVL
As for B1, the binding result was “binds”.

Source of the values: article PMC9400459 (Science (New York, N.y.), 2022).
